Measured values from several laboratories, pooled; numbers as filed in NIAID ChemDB.

Common to all: tests in culture; organism: HIV-1; method: luciferase; read-out: EC50

ECn is the concentration giving n% inhibition of infection, replication or growth. An empty or dashed field is not shown. Neighbouring rows are from separate reports.

SMILES,strain,cells,conditions,mutations,value
Cc1ccc(-n2c(C)nnc2SCC(=O)Nc2cccc(Cl)c2)cc1,NL4-3,HeLa + HeLa-JC53,,,>10 µM
CC(C)(N)C(=O)O.[Na+],IIIB,,,,1.08 µM
COc1cc2c(OC3O[C@H](CO)[C@H]4OC(C)(C)O[C@@H]4[C@H]3O)c3c(c(-c4ccc5c(c4)OCO5)c2cc1OC)C(=O)OC3,NL4-3,293T,pseudotyped,,>0.0527 µM
OC[C@H]1O[C@@H](n2cnc3cc(Cl)c(Cl)cc32)[C@H](O)[C@@H]1O,NL4-3 Recombinant VSV-pseudotyped,HeLa,,,<50 µM
Cc1cn([C@H]2C[C@H](N=[N+]=[N-])[C@@H](CO)O2)c(=O)[nH]c1=O,NRTI resistant,HeLa,,RT-K65R K70R V75I F77L F116Y Q151M,>0.0164 µM
CCN1C(=O)C(c2cc(O)cc(-c3cccnc3)c2)C(=O)N(c2ccccc2)c2cc(C(F)(F)F)ccc21,NL4-3,,,,0.48 µM
CC(=O)N1CCC(C(=O)N(CCCN2CCC(Cc3ccc(C(N)=O)cc3)CC2)c2ccc(C)c(Cl)c2)CC1,X4 subtype B_2 recombinant,U87 (CD4+ CXCR4+) + U87,,,>19 µM
CC[C@H](C)[C@H]1NC(=O)[C@@H](NC(=O)[C@@H](C)N(C)C(=O)[C@@H]2CCCN2C(=O)C(C)=O)[C@@H](C)OC(=O)[C@H](Cc2ccc(OC)cc2)N(C)C(=O)[C@@H]2CCCN2C(=O)[C@H](CC(C)C)NC(=O)[C@@H](C)C(=O)[C@H](C(C)C)OC(=O)C[C@@H]1O,NL4-3,PBMC,,,0.35 µM
Cc1cc(C#N)cc(C)c1Oc1nc(Nc2ccc(C#N)cc2)nc(N)c1Br,MJ4 C (N348I),HEK293T,,,0.00205 µM
COC[C@@H](c1ccc(C(F)(F)F)cc1)N1CCN(C2(C)CCN(C(=O)c3c(C)ncnc3C)CC2)C[C@@H]1C,,TZM-bl,,M518V F519I,0.0014 µM
C=CCOC(=O)O[C@@H]1COC(Oc2c3c(c(-c4ccc5c(c4)OCO5)c4cc(OC)c(OC)cc24)C(=O)OC3)[C@H](OC(=O)OCC=C)[C@H]1O,NL4-3,293T,pseudotyped,,>0.4383 µM
Cc1nnc(C(=O)NC(C)(C)c2nc(C(=O)NCc3ccc(F)cc3)c(O)c(=O)n2C)o1,SF162,ACH2 + TZM-bl,,,0.00009 µM
COc1ccc(Sc2nc(N)nc3c2ncn3C[C@@H](CF)OP(=O)(O)O)cc1,NL4-3,TZM-bl,,,>100 µM
COc1cc2c(OC3O[C@H](CO)[C@@H]4OC(C)(C)O[C@@H]4[C@H]3O)c3c(c(-c4ccc5c(c4)OCO5)c2cc1OC)C(=O)OC3,NL4-3,293T,pseudotyped,,>0.0527 µM
CCc1cc(-c2ccc(C(F)(F)F)o2)n(-c2ccc3c(c2)nc(-c2ccccc2O)n3CC2=CCC(=O)N=C2)n1,NL4-3,,,,0.11 µM
CCCCCOC(=O)C[C@H](NP(=O)(CO[C@@H](CF)Cn1ccc2c(=O)[nH]c(N)nc21)N[C@@H](CC(=O)OCCCCC)C(=O)OCCCCC)C(=O)OCCCCC,BaL,TZM-bl,,,2.62 µM
Cc1ccc(-n2c(SCC(=O)Nc3ccc(C)cc3Br)nnc2C2CC2)cc1,NL4-3,HeLa + HeLa-JC53,,RT-K103N Y181C,>10 µM
Cc1cc2c(C(C)C)c(C)c(O)c(C=O)c2c(O)c1-c1c(C)cc2c(C(C)C)c(O)c(O)c(C=O)c2c1O,NL4-3,,,,0.64 µM
O=C1CCCN1CCCN1CC(=O)N2CC(N(CCOc3ccccc3)S(=O)(=O)c3cccc(F)c3)C[C@H]2C1=O,PLAI-JRFL PID3-19,TZM-bl,,,>30 µM
CC[C@H](C)[C@H]1NC(=O)[C@@H](NC(=O)[C@@H](CC(C)C)N(C)S(=O)(=O)c2ccc(C)cc2)[C@@H](C)OC(=O)[C@H](Cc2ccc(OC)cc2)N(C)C(=O)[C@@H]2CCCN2C(=O)[C@H](CC(C)C)NC(=O)[C@H](C(C)C)OC(=O)C[C@@H]1O,NL4-3,MT-2,,Delta-env-VSV-Luc,0.053 µM
COc1cc2c(OC3OC[C@@H](O)[C@H](OC(=O)N(C)C)[C@H]3O)c3c(c(-c4ccc5c(c4)OCO5)c2cc1OC)C(=O)OC3,NL4-3,293T,pseudotyped,,>0.0558 µM
CC(C)OC(=O)[C@H](C)N[P@](=O)(CO[C@H](C)Cn1cnc2c(N)ncnc21)Oc1ccccc1,BaL,PBMC,,,0.0024 µM
CCN1C(=O)C(c2cc(C3C=NN=C3)c(O)cc2O)C(=O)N(c2ccccc2)c2cc(C(F)(F)F)ccc21,NL4-3,,,,0.13 µM
Cc1ccc(NC(=O)CSc2nnc(C)n2-c2ccccc2)c(Br)c1,NL4-3,HeLa + HeLa-JC53,,RT-K103N Y181C,1.3 µM
CC(C)=CCOc1c2occc2cc2ccc(=O)oc12,NL4-3 Recombinant VSV-pseudotyped,PBMC,,,<25 µM
CC(C)[C@H](N)C(=O)O.[Na+],IIIB,,,,0.56 µM
Cn1c2ccccc2c2c1cc(C#N)c(=O)n2-c1ccc([N+](=O)[O-])cc1,Recombinant,HeLa,,RT-M41L V118I M184V,0.44 µM
Cc1cn([C@H]2C[C@H](N=[N+]=[N-])[C@@H](CO)O2)c(=O)[nH]c1=O,VB59,TZM-bl,,,0.02 µM
Cc1ccc(-n2c(C)nnc2SCC(=O)Nc2ccccc2C(F)(F)F)cc1,NL4-3,HeLa + HeLa-JC53,,RT-K103N Y181C,>10 µM
Nc1nc2c(c(F)cn2C[C@H](CF)OCP(=O)(O)O)c(=O)[nH]1,BaL,TZM-bl,,,>100 µM
COc1cc2c(OC3O[C@H](C)[C@@H](O)[C@H](OC(=O)c4ccc(Cl)cc4)[C@H]3O)c3c(c(-c4ccc5c(c4)OCO5)c2cc1OC)C(=O)OC3,NL4-3,293T,pseudotyped,,>0.3365 µM
N#Cc1cn(C[C@H](CF)OCP(=O)(O)O)c2nc(N)[nH]c(=O)c12,NL4-3,PBMC,,,>100 µM
Cc1ccc2c(C)ccc(-n3c(C)nnc3SCC(=O)Nc3ccc(S(N)(=O)=O)cc3Cl)c2c1,NL4-3,HeLa + HeLa-JC53,,RT-Y188L,0.006 µM
Cc1cn([C@H]2C[C@H](N=[N+]=[N-])[C@@H](CO)O2)c(=O)[nH]c1=O,SF162,ACH2 + TZM-bl,,,0.00138 µM
CC(C)C[C@H](N)C(=O)O.[Na+],NL4-3,,,,0.22 µM
CC[C@H](C)[C@H]1NC(=O)[C@@H](NC(=O)[C@@H](CC(C)C)N(C)C(=O)c2cc3ccccc3s2)[C@@H](C)OC(=O)[C@H](Cc2ccc(OC)cc2)N(C)C(=O)[C@@H]2CCCN2C(=O)[C@H](CC(C)C)NC(=O)[C@H](C(C)C)OC(=O)C[C@@H]1O,NL4-3,PBMC,,,0.011 µM
N#Cc1cn(C[C@@H](CF)OCP(=O)(O)O)c2nc(N)[nH]c(=O)c12,BaL,PBMC,,,>100 µM
CC[C@H](C)[C@H]1NC(=O)[C@@H](NC(=O)[C@H](CC(C)C)N(C)C(=O)[C@@H]2CCCN2C(=O)C(C)=O)[C@@H](C)OC(=O)[C@H](Cc2ccc(OC)cc2)N(C)C(=O)[C@@H]2CCCN2C(=O)[C@H](CC(C)C)NC(=O)[C@@H](C)C(=O)[C@H](C(C)C)OC(=O)C[C@@H]1O,NL4-3,PBMC,,,0.03 µM
Cc1ccc(-n2c(SCC(=O)Nc3ccc(C)cc3Br)n[nH]c2=O)cc1,NL4-3,HeLa + HeLa-JC53,,RT-K103N Y181C,>10 µM

Repeating the final 4 entries:

SMILES | strain | cells | conditions | mutations | value
CC[C@H](C)[C@H]1NC(=O)[C@@H](NC(=O)[C@@H](CC(C)C)N(C)C(=O)c2cc3ccccc3s2)[C@@H](C)OC(=O)[C@H](Cc2ccc(OC)cc2)N(C)C(=O)[C@@H]2CCCN2C(=O)[C@H](CC(C)C)NC(=O)[C@H](C(C)C)OC(=O)C[C@@H]1O | NL4-3 | PBMC |  |  | 0.011 µM
N#Cc1cn(C[C@@H](CF)OCP(=O)(O)O)c2nc(N)[nH]c(=O)c12 | BaL | PBMC |  |  | >100 µM
CC[C@H](C)[C@H]1NC(=O)[C@@H](NC(=O)[C@H](CC(C)C)N(C)C(=O)[C@@H]2CCCN2C(=O)C(C)=O)[C@@H](C)OC(=O)[C@H](Cc2ccc(OC)cc2)N(C)C(=O)[C@@H]2CCCN2C(=O)[C@H](CC(C)C)NC(=O)[C@@H](C)C(=O)[C@H](C(C)C)OC(=O)C[C@@H]1O | NL4-3 | PBMC |  |  | 0.03 µM
Cc1ccc(-n2c(SCC(=O)Nc3ccc(C)cc3Br)n[nH]c2=O)cc1 | NL4-3 | HeLa + HeLa-JC53 |  | RT-K103N Y181C | >10 µM